The results in this text go back to patent US7615542B2, “Dioxolane thymine and combinations for use against 3TC/AZT resistant strains of HIV” (priority 2002, dated 2009).

“And” between values parts separate entries of the source, which are not always exact repeats. Equal values may be shown once.

The data set deals with K65RPITT. As to the kind of experiment: Cross-resistance assay in human PBM cells, RT activity readout: K65R virus. The format is cell-based, HIV. The settings on record: slope of concentration-response curve.

As for `Cc1cn([C@H]2CO[C@@H](CO)O2)c(=O)[nH]c1=O` [DOT, (−)-(1′R,4′R)-Dioxolane-thymine], the SLOPE is 1.1 ± 0.12 and 0.82 ± 0.16.
